Laboratory results: patent publication US5968514, “Methods for stimulating immune responses in a host through the administration of superantigen peptides derived from human immunodeficiency virus type 1 Nef” (dated 1999)
Where two headings read alike, the source gives them in different places.

Legend:
[1] = target: murine class II MHC molecules on A20 cells (I-A^d and I-E^d)
[2] = target: murine class II MHC molecules on A20 cells (I-A^d and I-E^d); test: competition with ^125 I-SEA on A20 cells, peptide at 200 µM
[3] = target: murine class II MHC molecules on A20 cells (I-A^d and I-E^d); test: competition with ^125 I-MMTV ORF(76-119) on A20 cells

MMTV ORF(76-119) was tested, and the IC50 [1] was 20 µM.
For MMTV ORF(76-119) (peptide), the percent reduction of ^125 I-SEA binding [2] was 63% and the IC50 [3] was 25 µM.
